The text below walks through data of patent US8524659B2 (National Taiwan University, priority 2011, dated 2013).

Strings that start with PEPTIDE1 are HELM notation: dots part the residues, brackets hold end groups and non-standard residues. Bounds are passed on as bounds.

The data set is described as follows: general procedure: Fmoc solid-phase peptide synthesis; Fmoc-PAL-PEG-PS; HBTU/HOBT. The conditions noted are these: whole synthesis; for final HPLC purity: analytical RP-HPLC.

As for “6-carboxyfluorescein-βAla-Tyr-Gly-Agb-Lys-Lys-Agb-Agb-Gln-Agb-Agb-Agb-NH2”, the crude yield was found to be 46.5% and the “final HPLC purity” value is recorded as 96.1%. Under “cleavage yield”, this substance showed a crude yield of more than 99%.
Taken in the same sequence, the figures for “6-carboxyfluorescein-βAla-Tyr-Gly-Agh-Lys-Lys-Agh-Agh-Gln-Agh-Agh-Agh-NH2” were 52.0%, 98.6% and more than 99%.
Take “6-carboxyfluorescein-βAla-Tyr-Gly-Arg-Lys-Lys-Arg-Arg-Gln-Arg-Arg-Arg-NH2”: the crude yield worked out at 48.3% and the “final HPLC purity” value was found to be 99.2%. Further, the crude yield (cleavage yield) is reported as more than 99%.
Taken in the same sequence, the figures for “6CF-βAla-Tyr-Gly-Arg-Lys-Lys-Arg-Arg-Gln-Arg-Arg-Cit-NH2” were 68.0%, 96.4% and more than 99% yield.
Taken in the same sequence, the figures for “6CF-βAla-Tyr-Gly-Arg-Lys-Lys-Arg-Arg-Gln-Arg-Cit-Arg-NH2” were 64.2%, 96.4% and more than 99% yield.
In the case of “6CF-βAla-Tyr-Gly-Arg-Lys-Lys-Arg-Arg-Gln-Cit-Arg-Arg-NH2”, the crude yield is listed as 57.5% and the “final HPLC purity” value is 95.9%. Under “cleavage yield”, the crude yield is on record as more than 99% yield.
Consider “6CF-βAla-Tyr-Gly-Arg-Lys-Lys-Arg-Cit-Gln-Arg-Arg-Arg-NH2”, for which the crude yield is given as 46.6% and the “final HPLC purity” value is on record as 97.3%. For the same substance, the crude yield (cleavage yield) is given as more than 99% yield.
Taken in the same sequence, the figures for “6CF-βAla-Tyr-Gly-Arg-Lys-Lys-Cit-Arg-Gln-Arg-Arg-Arg-NH2” were 53.4%, 95.5% and more than 99% yield.
As to “6CF-βAla-Tyr-Gly-Cit-Lys-Lys-Arg-Arg-Gln-Arg-Arg-Arg-NH2”, the crude yield is given as 30.5% and the “final HPLC purity” value is recorded as 97.5%. This substance displayed a crude yield (cleavage yield) of more than 99% yield.
As to “Ac-Tyr-Gly-Arg-Lys-Lys-Arg-Arg-Gln-Arg-Arg-Cit-NH2”, the crude yield worked out at 65.3% and the “final HPLC purity” value worked out at 97.8%. Where the note is “cleavage yield”, the crude yield is reported as more than 99% yield.
Taken in the same sequence, the figures for “Ac-Tyr-Gly-Arg-Lys-Lys-Arg-Arg-Gln-Arg-Cit-Arg-NH2” were 64.2%, 96.2% and more than 99% yield.
Taken in the same sequence, the figures for “Ac-Tyr-Gly-Arg-Lys-Lys-Arg-Arg-Gln-Cit-Arg-Arg-NH2” were 65.6%, 97.1% and more than 99% yield.
For “Ac-Tyr-Gly-Arg-Lys-Lys-Arg-Cit-Gln-Arg-Arg-Arg-NH2” the same measures were 64.3%, 97.3% and more than 99% yield.
As to “Ac-Tyr-Gly-Arg-Lys-Lys-Cit-Arg-Gln-Arg-Arg-Arg-NH2”, the crude yield is 61.7% and the “final HPLC purity” value was determined as 98.2%. For the setting “cleavage yield”, this substance registered a crude yield of more than 99% yield.
For “Ac-Tyr-Gly-Cit-Lys-Lys-Arg-Arg-Gln-Arg-Arg-Arg-NH2” the same measures were 50.6%, 98.0% and more than 99% yield.
As for “Fmoc-Tyr-Gly-Arg-Lys-Lys-Arg-Arg-Gln-Arg-Arg-Cit-NH2”, the crude yield was found to be 75.5%.
On the same count and under the same terms, to “Fmoc-Tyr-Gly-Arg-Lys-Lys-Arg-Arg-Gln-Arg-Cit-Arg-NH2” belongs 64.9%.
As for “Fmoc-Tyr-Gly-Arg-Lys-Lys-Arg-Arg-Gln-Cit-Arg-Arg-NH2”, the crude yield came out at 63.0%.
Consider “Fmoc-Tyr-Gly-Arg-Lys-Lys-Arg-Cit-Gln-Arg-Arg-Arg-NH2”, for which the crude yield came out at 65.7%.
Substance “Fmoc-Tyr-Gly-Arg-Lys-Lys-Cit-Arg-Gln-Arg-Arg-Arg-NH2” registered a crude yield of 62.6%.
The same measure, in the same setting: to “Fmoc-Tyr-Gly-Cit-Lys-Lys-Arg-Arg-Gln-Arg-Arg-Arg-NH2” belongs 51.1%.
Consider “PEPTIDE1{[ac].Y.G.R.K.K.R.R.Q.R.R.R.[am]}$$$$V2.0”, for which the crude yield is reported as 59.6% and the “final HPLC purity” value is recorded as 98.7%. This substance also returned a crude yield (cleavage yield) of more than 99%.
In the case of “PEPTIDE1{[ac].Y.G.[Agb].K.K.[Agb].[Agb].Q.[Agb].[Agb].[Agb].[am]}$$$$V2.0”, the crude yield turned out to be 53.6% and the “final HPLC purity” value turned out to be 99.0%. The substance further gave a crude yield (cleavage yield) of more than 99%.
For “PEPTIDE1{[ac].Y.G.[Agh].K.K.[Agh].[Agh].Q.[Agh].[Agh].[Agh].[am]}$$$$V2.0” the same measures were 66.6%, 98.5% and more than 99%.
